Measurements reported in PubChem BioAssay AID1259414 (Drosophila RNAi Screening Center, 2018).

Assay: 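Fly genes that alter Wolbachia amount inside host cells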 (primary screen)
Cell system: Drosophila JW18 cells infected with Wolbachia
Reagent: long dsRNA against Drosophila genes, 0.25 µg dsRNA per well of a 384-well plate
Time to read-out: 5 days
Treatment: cells persistently infected with Wolbachia before knock-down; no added drug
Detection: 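Automated imaging of bacterial rRNA staining divided by host cell count, reported as plate-normalised robust z-score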
Reading the numbers: Wolbachia per cell robust z: higher = more Wolbachia per host cell than the plate typical
Rule for the call: 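Hit when robust z is 1.5 or more, or -1.5 or less, in at least two of three replicates; excludes dsRNAs with several or no targets, genes not expressed in JW18 and well A1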
The screen tested about 24,000 reagents; this is a random part of those that have a named target and a result. Of all reagents, about 1,210 (5%) are marked active. 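Inactive calls also include excluded dsRNAs with several or no targets, genes unexpressed in JW18, and well A1, regardless of score.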 Names joined by + are all predicted targets of the reagent.

For Picot [DRSC07508] the deposit lists Wolbachia per cell robust z, rep 1 = -2.58; Wolbachia per cell robust z, rep 2 = -0.314; Wolbachia per cell robust z, rep 3 = -1.09; inactive. Picot [DRSC24256] gave Wolbachia per cell robust z, rep 1 = 0.0844; Wolbachia per cell robust z, rep 2 = -1.08; Wolbachia per cell robust z, rep 3 = 0.891; inactive. CAH5 [DRSC15372] gave Wolbachia per cell robust z, rep 1 = 0.988; Wolbachia per cell robust z, rep 2 = -0.933; Wolbachia per cell robust z, rep 3 = 0.161; inactive. grau [DRSC04691] scored Wolbachia per cell robust z, rep 1 = 0.415; Wolbachia per cell robust z, rep 2 = 1.04; Wolbachia per cell robust z, rep 3 = 0.0358; inactive. Against grau [DRSC27330] the deposit lists Wolbachia per cell robust z, rep 1 = -6.42; Wolbachia per cell robust z, rep 2 = -3.07; Wolbachia per cell robust z, rep 3 = -0.789; active. CG7860 [DRSC20060] showed Wolbachia per cell robust z, rep 1 = 1.09; Wolbachia per cell robust z, rep 2 = 0.364; Wolbachia per cell robust z, rep 3 = 0.215; inactive.

Against CG7860 [DRSC41530], the values are Wolbachia per cell robust z, rep 1 = 0.268; Wolbachia per cell robust z, rep 2 = -1.95; Wolbachia per cell robust z, rep 3 = 0.545; inactive. Against CG12159 [DRSC06114], the entry reads Wolbachia per cell robust z, rep 1 = -1.02; Wolbachia per cell robust z, rep 2 = -2.25; Wolbachia per cell robust z, rep 3 = -0.858; inactive. After knock-down of CG8861 [DRSC12731], the screen gave Wolbachia per cell robust z, rep 1 = -0.195; Wolbachia per cell robust z, rep 2 = -0.248; Wolbachia per cell robust z, rep 3 = -0.488; inactive. Silencing of CG8861 [DRSC16449] came out at: Wolbachia per cell robust z, rep 1 = -0.545; Wolbachia per cell robust z, rep 2 = 1.79; Wolbachia per cell robust z, rep 3 = -4.03; inactive. After knock-down of Sirt2 [DRSC15714] the results were Wolbachia per cell robust z, rep 1 = -2.58; Wolbachia per cell robust z, rep 2 = -0.0897; Wolbachia per cell robust z, rep 3 = -2.94; active. Sirt2 [DRSC26964] showed Wolbachia per cell robust z, rep 1 = 0.0324; Wolbachia per cell robust z, rep 2 = 1.49; Wolbachia per cell robust z, rep 3 = 0.535; inactive.

Against CG5958 [DRSC02915], the entry reads Wolbachia per cell robust z, rep 1 = 0.482; Wolbachia per cell robust z, rep 2 = 1.39; Wolbachia per cell robust z, rep 3 = -0.101; inactive. For CG13192 [DRSC06317], the values are Wolbachia per cell robust z, rep 1 = 0.756; Wolbachia per cell robust z, rep 2 = -2.86; Wolbachia per cell robust z, rep 3 = 0.361; inactive. After knock-down of CG42486 + CG14933 [DRSC26454] the results were Wolbachia per cell robust z, rep 1 = -1.85; Wolbachia per cell robust z, rep 2 = -0.489; Wolbachia per cell robust z, rep 3 = 0.37; inactive. For CG33172 [DRSC21793], the values are Wolbachia per cell robust z, rep 1 = -1.1; Wolbachia per cell robust z, rep 2 = -0.202; Wolbachia per cell robust z, rep 3 = -0.38; inactive. For mRpL44 [DRSC12306], the entry reads Wolbachia per cell robust z, rep 1 = -0.234; Wolbachia per cell robust z, rep 2 = -3.06; Wolbachia per cell robust z, rep 3 = -1.19; inactive. Depletion of mRpL44 [DRSC26876] resulted in: Wolbachia per cell robust z, rep 1 = 0.00664; Wolbachia per cell robust z, rep 2 = 0.533; Wolbachia per cell robust z, rep 3 = -1.64; inactive.

For lin-28 [DRSC10261], the entry reads Wolbachia per cell robust z, rep 1 = 0.574; Wolbachia per cell robust z, rep 2 = -3.2; Wolbachia per cell robust z, rep 3 = -0.325; inactive. CG15873 [DRSC04277] showed Wolbachia per cell robust z, rep 1 = 0.548; Wolbachia per cell robust z, rep 2 = -0.353; Wolbachia per cell robust z, rep 3 = 0.548; inactive. Silencing of Cyp6a17 [DRSC07378] gave: Wolbachia per cell robust z, rep 1 = -0.744; Wolbachia per cell robust z, rep 2 = -0.924; Wolbachia per cell robust z, rep 3 = 0.366; inactive. olf413 [DRSC11543] scored Wolbachia per cell robust z, rep 1 = -0.959; Wolbachia per cell robust z, rep 2 = -0.293; Wolbachia per cell robust z, rep 3 = -0.511; inactive. For olf413 [DRSC11679] the deposit lists Wolbachia per cell robust z, rep 1 = 0.564; Wolbachia per cell robust z, rep 2 = 2.01; Wolbachia per cell robust z, rep 3 = 1.26; inactive. olf413 [DRSC11721] gave Wolbachia per cell robust z, rep 1 = 0.59; Wolbachia per cell robust z, rep 2 = -0.172; Wolbachia per cell robust z, rep 3 = 0.625; inactive.

Against olf413 [DRSC11833], the entry reads Wolbachia per cell robust z, rep 1 = 1.4; Wolbachia per cell robust z, rep 2 = 0.258; Wolbachia per cell robust z, rep 3 = 0.942; inactive.

Ordered by “Wolbachia per cell robust z, rep 2” (high to low): some entries from above.
grau [DRSC04691]: Wolbachia per cell robust z, rep 1 = 0.415; Wolbachia per cell robust z, rep 2 = 1.04; Wolbachia per cell robust z, rep 3 = 0.0358; call = inactive
CAH5 [DRSC15372]: Wolbachia per cell robust z, rep 1 = 0.988; Wolbachia per cell robust z, rep 2 = -0.933; Wolbachia per cell robust z, rep 3 = 0.161; call = inactive
Picot [DRSC24256]: Wolbachia per cell robust z, rep 1 = 0.0844; Wolbachia per cell robust z, rep 2 = -1.08; Wolbachia per cell robust z, rep 3 = 0.891; call = inactive
grau [DRSC27330]: Wolbachia per cell robust z, rep 1 = -6.42; Wolbachia per cell robust z, rep 2 = -3.07; Wolbachia per cell robust z, rep 3 = -0.789; call = active
